Pooled drug test results. Numbers come from NIAID ChemDB, via PubChem.

Shared fields: enzyme or target tests

ICn: concentration for n% inhibition. Blank or dashed fields: not listed here. Two numbers with a dash give a range or band. Lines come from different laboratories, so protocols vary. Inhibition is in % at the dose shown (toxicity tests: loss of growth or viability).

structure	target	measure	species	tested at	result
COc1nc(Nc2ccc3[nH]ncc3c2)nc(N2CCCC2)n1	DNA polymerase	inhibition	Hepatitis B virus	1 µg/mL	67%
CNC(=O)c1c(-c2ccc(F)cc2)oc2cc(N(C)S(C)(=O)=O)c(Oc3nc(CCl)ns3)cc12	Nonstructural protein 5B	IC50	Hepatitis C virus	-	≤0.5 µM
O=C(Nc1ccsc1-c1nc(C(=O)O)c(O)c(=O)[nH]1)c1ccc(C#Cc2ccccc2)o1	HCV polymerase	IC50	Hepatitis C virus	-	<25 µM
O=C(O)/C=C/c1ccc(NC(=O)[C@H](NC(=O)c2ccc3c(c2)nc(-c2ccoc2)n3C2CCCCC2)c2ccccc2)cc1	NS5B polymerase	IC50	Hepatitis C virus	-	0.5–5 µM
O=C(O)c1ccc2c(c1)nc(-c1ccc3nc(-c4ccccc4)cc(Sc4ccccc4)c3c1)n2C1CCCCC1	NS5B polymerase	inhibition	Hepatitis C virus	100 µM	100%
COc1cc(C)ccc1C(=O)N(C)c1cc(-c2ccccc2)sc1C(=O)O	NS3 ATPase	IC50	Hepatitis C virus	-	5–20 µM
O=C(O)CCC(=O)N[C@@H](CCC(=O)O)C(=O)N[C@@H](CCC(=O)O)C(=O)N[C@@H](CS)C(=O)O	Nonstructural protein 3 NTPase/helicase	inhibition	Hepatitis C virus	16.7 µM	32%
O=C(O)/C=C/c1ccc(NC(=O)C2(NC(=O)c3ccc4c(c3)nc(-c3ccc(OCC(=O)NCCNC(=O)c5ccc(C(=O)c6ccccc6)cc5)cc3)n4C3CCCCC3)CCN(C(=O)CCCCC3SC[C@H]4NC(=O)N[C@@H]34)CC2)cc1	NS5B polymerase	IC50	Hepatitis C virus	-	5–25 µM
O=C(O)c1cc2nc(-c3ccc(C(F)(F)F)cc3)cc(-c3ccc(Cl)cc3)n2n1	RNA-dependent RNA polymerase	IC50	Hepatitis C virus	-	>10 µM
O=C(NC1(C(=O)Nc2ccc(-c3nc(C(=O)O)cs3)cc2)CCCC1)c1ccc2c(c1)nc(-c1ccoc1)n2C1CCCCC1	NS5B polymerase	IC50	Hepatitis C virus	-	<0.5 µM
O=C(O)c1nc(-c2ccccc2NS(=O)(=O)c2cccc(C(F)(F)F)c2)[nH]c(=O)c1O	HCV polymerase	IC50	Hepatitis C virus	-	<100 µM
CC(C)[C@H](NC(=O)[C@@H](NC(=O)CCC(=O)O)C1CCCCC1)C(=O)N[C@@H](CCC(=O)O)C(=O)NC1(C(=O)O)CC1	Nonstructural protein 3 NTPase/helicase	IC50	Hepatitis C virus	-	>83.5 µM
CNC(=O)c1c(-c2ccc(F)cc2)oc2cc(N(CCF)S(C)(=O)=O)c(OC)cc12	Nonstructural protein 5B	IC50	Hepatitis C virus	-	≤0.5 µM
CC[C@H](NC(=O)[C@@H]1C[C@@H](OCc2ccccc2)CN1C(=O)[C@@H](NC(=O)[C@@H](NC(=O)c1cnccn1)C(C)C)C(C)C)C(=O)C(=O)CCc1ccccc1	NS3 protease	Ki	Hepatitis C virus	-	1–100 µM
COc1ccc(-c2ccc(C(=O)N3CCCC3)cc2-c2ccc3cc(-c4nc5cc(C(=O)O)ccc5n4C4CCCCC4)ccc3n2)cc1OC	NS5B polymerase	inhibition	Hepatitis C virus	100 µM	101%
COc1ccc(-c2cc(NS(=O)c3ccccc3C)c(C(=O)O)s2)cc1	NS3 ATPase	IC50	Hepatitis C virus	-	<5 µM
COc1cc(OC)cc(C(=O)Nc2cccc(-c3nc(C(=O)O)c(O)c(=O)[nH]3)c2)c1	HCV polymerase	IC50	Hepatitis C virus	-	<100 µM
CC[C@H](NC(=O)[C@H](CC(C)C)NC(=O)[C@@H](NC(=O)[C@@H](NC(=O)c1cnccn1)C(C)C)C(C)C)C(=O)C(=O)NCCc1ccc(OCc2ccccc2)c(OCc2ccccc2)c1	NS3 protease	Ki	Hepatitis C virus	-	1–100 µM
O=C(O)c1ccc2c(c1)nc(-c1ccc3nc(-c4ccc5c(c4)OCO5)ccc3c1)n2C1CCCCC1	NS5B polymerase	inhibition	Hepatitis C virus	100 µM	100%
CC(C)C[C@H](NC(=O)[C@H](CCC(N)=O)NC(=O)[C@@H](NC(=O)CCC(=O)O)C1CCCCC1)C(=O)N[C@@H](CS)C(=O)O	Nonstructural protein 3 NTPase/helicase	inhibition	Hepatitis C virus	167 µM	97%
CNC(=O)c1c(-c2ccc(F)cc2)oc2cc(N3CCOCC3)c(OCc3ccccc3)cc12	Nonstructural protein 5B	IC50	Hepatitis C virus	-	≤0.5 µM
O=C(O)c1ccc2c(c1)nc(-c1ccc3nc(-c4cccc(O)c4)ccc3c1)n2C1CCCCC1	NS5B polymerase	inhibition	Hepatitis C virus	33 µM	96.95%
c1ccc(COc2ccc(-c3cnc4c(-c5nn[nH]n5)cnn4c3N3CCCCC3)cc2)cc1	RNA-dependent RNA polymerase	IC50	Hepatitis C virus	-	1–10 µM
CC(NC(=O)c1ccc2c(c1)nc(-c1ccoc1)n2C1CCCCC1)C(=O)Nc1cccc(/C=C/C(=O)O)c1	NS5B polymerase	IC50	Hepatitis C virus	-	0.5–5 µM
CCCC(=O)N(Cc1ccc(C(C)(C)C)cc1)c1cc(-c2ccccc2)sc1C(=O)O	NS3 ATPase	IC50	Hepatitis C virus	-	5–20 µM
O=C(NCc1ccon1)Nc1cscc1-c1nc(C(=O)O)c(O)c(=O)[nH]1	HCV polymerase	IC50	Hepatitis C virus	-	<25 µM
C[C@@H]1CCCC[C@H]1n1c(-c2ccco2)nc2cc(C(=O)NC3(C(=O)Nc4ccc(/C=C/C(=O)O)cc4)CCCC3)ccc21	NS5B polymerase	IC50	Hepatitis C virus	-	0.5–5 µM
O=C(O)CCC(=O)N[C@H](C(=O)N[C@@H](CCC(=O)O)C(=O)N[C@H](C(=O)N[C@@H](CS)C(=O)O)C1CCCCC1)C(c1ccccc1)c1ccccc1	Nonstructural protein 3 NTPase/helicase	IC50	Hepatitis C virus	-	>16.7 µM
CNC1N=C(OC)N=C(Nc2ccc3cn[nH]c3c2)N1CN	DNA polymerase	inhibition	Hepatitis B virus	1 µg/mL	55%
O=C(O)CCCC(=O)N[C@@H](CCC(=O)O)C(=O)N[C@@H](CCC(=O)O)C(=O)NC1(C(=O)O)CC1	Nonstructural protein 3 NTPase/helicase	IC50	Hepatitis C virus	-	>83.5 µM
CC[C@H](NC(=O)[C@H](CC(C)C)NC(=O)[C@@H](NC(=O)[C@@H](NC(=O)c1cnccn1)C(C)C)C(C)C)C(=O)C(=O)Nc1ccccc1	NS3 protease	Ki	Hepatitis C virus	-	>100 µM
CC(C)C(NC(=O)c1ccc2c(c1)nc(-c1ccc3nc(-c4ccccc4)cnc3c1)n2C1CCCCC1)C(=O)O	NS5B polymerase	inhibition	Hepatitis C virus	100 µM	97.78%
O=C(O)/C=C/c1ccc(NC(=O)C2(NC(=O)c3ccc4c(c3)nc(-c3ccccc3)n4C3CCCCC3)CCCC2)cc1	NS5B polymerase	IC50	Hepatitis C virus	-	0.5–5 µM
O=C(Nc1cccc(C(F)(F)F)c1)Nc1ccccc1-c1nc(C(=O)O)c(O)c(=O)[nH]1	HCV polymerase	IC50	Hepatitis C virus	-	<100 µM
O=C(O)c1cc2nc(-c3ccc(F)cc3)cc(-c3cccc(Cl)c3)n2n1	RNA-dependent RNA polymerase	IC50	Hepatitis C virus	-	>10 µM
O=C(O)c1sc(-c2ccccc2)cc1N(Cc1cccc(Cl)c1)C(=O)C1CCC1	NS3 ATPase	IC50	Hepatitis C virus	-	5–20 µM
COc1nc(NCCc2ccccn2)nc(Nc2ccc3cn[nH]c3c2)n1	DNA polymerase	IC50	Hepatitis B virus	-	>1 µg/mL
O=C(O)c1cc2nc(-c3ccc(Cl)cc3Cl)cc(-c3cccc(F)c3)n2n1	RNA-dependent RNA polymerase	IC50	Hepatitis C virus	-	>10 µM
CC(C)C[C@H](NC(=O)CCC(=O)O)C(=O)N[C@@H](CCC(=O)O)C(=O)N[C@@H](CCC(=O)O)C(=O)NC1(C(=O)O)CC1	Nonstructural protein 3 NTPase/helicase	IC50	Hepatitis C virus	-	>167 µM
CCOC(=O)c1cnn2c(-c3ccc(Cl)cc3)cc(-c3ccc(F)cc3)nc12	RNA-dependent RNA polymerase	IC50	Hepatitis C virus	-	>10 µM
COc1nc(Nc2ccc3[nH]ncc3c2)nc(N2CCN(CCO)CC2)n1	Nonstructural protein 5B	inhibition	Hepatitis C virus	1 µg/mL	45%
Cc1nc(Nc2ccc(NC(=O)C3(NC(=O)c4ccc5c(c4)nc(-c4ccoc4)n5C4CCCCC4)CCCC3)cn2)sc1C(=O)O	NS5B polymerase	IC50	Hepatitis C virus	-	0.5–5 µM
Cc1ccc(C(=O)N(C)c2cc(-c3ccccc3F)sc2C(=O)O)cc1	NS3 ATPase	IC50	Hepatitis C virus	-	<5 µM
N#CNC(=O)c1cnn2c(C3CCCCC3)c(-c3ccc(OCc4ccccc4)cc3)cnc12	RNA-dependent RNA polymerase	IC50	Hepatitis C virus	-	<1 µM
CC(C)(C)c1ccc(S(=O)(=O)Nc2ccccc2-c2nc(C(=O)O)c(O)c(=O)[nH]2)cc1	HCV polymerase	IC50	Hepatitis C virus	-	<100 µM
COc1ccc(-c2ccc(Cl)cc2)c(-c2ccc3cc(-c4nc5cc(C(=O)O)ccc5n4CCC(C)C)ccc3n2)c1	NS5B polymerase	inhibition	Hepatitis C virus	100 µM	98.77%
O=C(O)/C=C/c1ccc(NC(=O)C2(NC(=O)c3ccc4c(c3)nc(-c3ccoc3)n4C3CCC3)CCCC2)cc1	NS5B polymerase	IC50	Hepatitis C virus	-	0.5–5 µM
O=C(O)CCC(=O)N[C@@H](CCC(=O)O)C(=O)N[C@@H](CCC(=O)O)C(=O)NC1(C(=O)O)CC1	Nonstructural protein 3 NTPase/helicase	IC50	Hepatitis C virus	-	>83.5 µM
CC(C)N(C(=O)c1cc(Cl)cc(Cl)c1)c1cc(-c2ccccc2)sc1C(=O)O	NS3 ATPase	IC50	Hepatitis C virus	-	5–20 µM
O=C(Nc1cccc(-c2nc(C(=O)O)c(O)c(=O)[nH]2)c1)Nc1cc(C(F)(F)F)cc(C(F)(F)F)c1	HCV polymerase	IC50	Hepatitis C virus	-	<100 µM
CC(=O)N[C@H](C(=O)N[C@@H](CCC(=O)O)C(=O)N[C@@H](CCC(=O)O)C(=O)NC1(C(=O)O)CC1)C1CCCCC1	Nonstructural protein 3 NTPase/helicase	inhibition	Hepatitis C virus	83.5 µM	18%
O=C(O)c1sc(-c2ccccc2)cc1NC(=O)N1CCC2(CC1)C(=O)NCN2c1ccccc1	NS3 ATPase	IC50	Hepatitis C virus	-	<5 µM
c1csc(COc2ccc(-c3cnc4c(-c5nn[nH]n5)cnn4c3C3CCCCC3)cc2)c1	RNA-dependent RNA polymerase	IC50	Hepatitis C virus	-	<1 µM
O=C(O)CCC(=O)N[C@H](C(=O)N[C@@H](CCC(=O)O)C(=O)N[C@@H](Cc1ccc2ccccc2c1)C(=O)N[C@@H](CS)C(=O)O)C1CCCCC1	Nonstructural protein 3 NTPase/helicase	inhibition	Hepatitis C virus	1.67 µM	50%
O=C(O)CC(NC(=O)c1ccc2c(c1)nc(-c1ccc3nc(-c4ccccc4)cnc3c1)n2C1CCCCC1)C(=O)O	NS5B polymerase	inhibition	Hepatitis C virus	33 µM	75.71%
O=C(O)c1cc2ncc(-c3ccc4occc4c3)c(C3CCCCC3)n2n1	RNA-dependent RNA polymerase	IC50	Hepatitis C virus	-	>10 µM
CC[C@H](NC(=O)[C@H](CC(C)C)NC(=O)[C@@H](NC(=O)[C@@H](NC(=O)c1cnccn1)C(C)C)C(C)C)C(=O)C(=O)N[C@@H](C)c1ccccc1	NS3 protease	Ki	Hepatitis C virus	-	1–100 µM
CCOc1cc2c(C(=O)NC)c(-c3ccc(F)cc3)oc2cc1N(CC)CC	Nonstructural protein 5B	IC50	Hepatitis C virus	-	≤0.5 µM
CCCC(C(=O)N[C@H](C(=O)N1C[C@H](OCc2ccccc2)C[C@H]1C(=O)N[C@H](C=O)CC)C(C)C)c1ccccc1	NS3 protease	Ki	Hepatitis C virus	-	1–100 µM
Nc1ccc(-c2ccc(Cl)cc2)c(-c2ccc3cc(-c4nc5cc(C(=O)O)ccc5n4C4CCCCC4)ccc3n2)c1	NS5B polymerase	inhibition	Hepatitis C virus	33 µM	101%

Repeating the final 8 entries:

structure	target	measure	species	tested at	result
c1csc(COc2ccc(-c3cnc4c(-c5nn[nH]n5)cnn4c3C3CCCCC3)cc2)c1	RNA-dependent RNA polymerase	IC50	Hepatitis C virus	-	<1 µM
O=C(O)CCC(=O)N[C@H](C(=O)N[C@@H](CCC(=O)O)C(=O)N[C@@H](Cc1ccc2ccccc2c1)C(=O)N[C@@H](CS)C(=O)O)C1CCCCC1	Nonstructural protein 3 NTPase/helicase	inhibition	Hepatitis C virus	1.67 µM	50%
O=C(O)CC(NC(=O)c1ccc2c(c1)nc(-c1ccc3nc(-c4ccccc4)cnc3c1)n2C1CCCCC1)C(=O)O	NS5B polymerase	inhibition	Hepatitis C virus	33 µM	75.71%
O=C(O)c1cc2ncc(-c3ccc4occc4c3)c(C3CCCCC3)n2n1	RNA-dependent RNA polymerase	IC50	Hepatitis C virus	-	>10 µM
CC[C@H](NC(=O)[C@H](CC(C)C)NC(=O)[C@@H](NC(=O)[C@@H](NC(=O)c1cnccn1)C(C)C)C(C)C)C(=O)C(=O)N[C@@H](C)c1ccccc1	NS3 protease	Ki	Hepatitis C virus	-	1–100 µM
CCOc1cc2c(C(=O)NC)c(-c3ccc(F)cc3)oc2cc1N(CC)CC	Nonstructural protein 5B	IC50	Hepatitis C virus	-	≤0.5 µM
CCCC(C(=O)N[C@H](C(=O)N1C[C@H](OCc2ccccc2)C[C@H]1C(=O)N[C@H](C=O)CC)C(C)C)c1ccccc1	NS3 protease	Ki	Hepatitis C virus	-	1–100 µM
Nc1ccc(-c2ccc(Cl)cc2)c(-c2ccc3cc(-c4nc5cc(C(=O)O)ccc5n4C4CCCCC4)ccc3n2)c1	NS5B polymerase	inhibition	Hepatitis C virus	33 µM	101%